{
  "sequences": {"note": "Protein sequences, listed by entry. Tags and fused reporters are not part of them.", "UniProt P9WHJ3, whole entry": "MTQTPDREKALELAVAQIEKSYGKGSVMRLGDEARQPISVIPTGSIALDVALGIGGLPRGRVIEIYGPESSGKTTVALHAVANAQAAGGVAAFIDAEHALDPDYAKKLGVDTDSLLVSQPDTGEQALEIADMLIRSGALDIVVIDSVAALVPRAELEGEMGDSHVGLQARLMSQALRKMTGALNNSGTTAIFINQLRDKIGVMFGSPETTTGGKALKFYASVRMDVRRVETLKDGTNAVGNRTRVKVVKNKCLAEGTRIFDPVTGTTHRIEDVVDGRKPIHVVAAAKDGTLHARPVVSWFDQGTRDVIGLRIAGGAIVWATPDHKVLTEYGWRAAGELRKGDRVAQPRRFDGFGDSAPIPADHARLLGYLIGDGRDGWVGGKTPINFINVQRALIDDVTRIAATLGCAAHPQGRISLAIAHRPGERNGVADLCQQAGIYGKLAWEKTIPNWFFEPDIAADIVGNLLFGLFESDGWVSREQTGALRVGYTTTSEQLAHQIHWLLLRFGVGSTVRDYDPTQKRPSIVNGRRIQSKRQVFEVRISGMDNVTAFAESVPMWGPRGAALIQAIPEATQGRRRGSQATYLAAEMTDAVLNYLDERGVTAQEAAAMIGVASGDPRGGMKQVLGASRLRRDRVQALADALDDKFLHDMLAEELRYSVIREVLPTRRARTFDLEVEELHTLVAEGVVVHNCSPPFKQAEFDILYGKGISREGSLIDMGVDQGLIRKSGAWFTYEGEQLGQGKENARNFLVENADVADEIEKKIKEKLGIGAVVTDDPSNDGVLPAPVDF"},
  "source": "PubChem BioAssay AID2221",
  "about": "(Broad Institute, 2009)",
  "note": "This is a selection; strong and weak results do not stand in their true shares. Activity calls are given as the source filed them. Rule as the data show it: active = inhibition above about 30%; inconclusive = no clear call, values can overlap the other calls; inactive = below that.",
  "data": [
    {"molecular_target": "Protein RecA (Mycobacterium tuberculosis (strain ATCC 25618 / H37Rv)) (UniProt P9WHJ3)", "experiment": "Mtb RecA intein splicing inhibitors, primary screen, biochemical, fluorescence, HTS (AID 2221);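 also: 0% = vehicle wells and 100% = reference inhibitor control wells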", "details": "cell-free RecA intein splicing, hits give high values, concentration not given here", "values": [
      {"smiles": "Cc1ccc(NP(=O)(Oc2cccc(C)c2)Oc2cccc(C)c2)nc1", "inhibition": "inactive: 10.9%"},
      {"smiles": "c1ccc(-c2nn[nH]n2)c(-c2nn[nH]n2)c1", "inhibition": "inactive: -2.37%"},
      {"smiles": "CP(=O)(Nc1ccccc1)Oc1ccc(F)cc1", "note": "(configuration not stated)", "inhibition": "inactive: 0.344%"},
      {"smiles": "CN(C)C(=O)Oc1noc2ccccc12", "inhibition": "inactive: -0.749%"},
      {"smiles": "CCCCCOc1ccc(NP(C)(=O)Oc2ccc(Cl)cc2Cl)cc1", "note": "(configuration not stated)", "inhibition": "inactive: -2.58%"},
      {"smiles": "O=[N+]([O-])c1cc([N+](=O)[O-])c(OC2CCCCC2O)c([N+](=O)[O-])c1", "note": "(configuration not stated)", "inhibition": "inactive: 7.9%"},
      {"smiles": "Cc1ccccc1OP(=O)(Nc1ccccn1)Oc1ccccc1C", "inhibition": "inactive: 12.4%"},
      {"smiles": "Cc1ccc(OP(=O)(Nc2ccccn2)Oc2ccc(C)cc2)cc1", "inhibition": "inactive: 2.74%"},
      {"smiles": "CC(=O)NC(SC(=S)N(CC(C)C)CC(C)C)C(Cl)(Cl)Cl", "note": "(configuration not stated)", "inhibition": "inactive: -0.633%"},
      {"smiles": "COC(=O)c1cc2c(s1)N=C(c1ccccc1)N(C)P2(=O)N1CCOCC1", "note": "(configuration not stated)", "inhibition": "inactive: 2.83%"},
      {"smiles": "CCC(=O)N1C2C3N(C(=O)CC)C1C1N(C(=O)CC)C(C(N1C(=O)CC)N3C(=O)CC)N2C(=O)CC", "inhibition": "inactive: -1.86%"},
      {"smiles": "CCN(CC)CCCOC(=O)C(O)(c1ccccc1)C1CCCCC1", "note": "(configuration not stated)", "inhibition": "inactive: -0.532%"},
      {"smiles": "O=C(OC1CN2CCC1CC2)c1ccccc1", "note": "(configuration not stated)", "inhibition": "inactive: -7.04%"},
      {"smiles": "C[C@H]1OP(=O)(Oc2ccccc2)[C@H](O)[C@H](O)[C@H]1N=[N+]=[N-]", "note": "(some centres not stated)", "inhibition": "inactive: 2.27%"},
      {"smiles": "O=P(Nc1nc2ccccc2s1)(c1ccccc1)c1ccccc1", "inhibition": "inactive: 4.01%"},
      {"smiles": "CN(C)CCOC(=O)C(O)(c1ccccc1)C1CCCCC1", "note": "(configuration not stated)", "inhibition": "inactive: 0.816%"},
      {"smiles": "COc1ccc(NP(C)(=O)Oc2ccccc2OC)cc1", "note": "(configuration not stated)", "inhibition": "inactive: -0.267%"},
      {"smiles": "COc1ccc(OP(C)(=O)Nc2cccc(Br)c2)cc1", "note": "(configuration not stated)", "inhibition": "inactive: -3.83%"},
      {"smiles": "CN(C)C1(CNC(=O)c2ccc(Cl)c(S(N)(=O)=O)c2)CCCCC1", "inhibition": "inactive: -0.301%"},
      {"smiles": "O=P(Nc1ccccn1)(c1ccc(Br)cc1)c1ccc(Br)cc1", "inhibition": "inactive: 2.2%"},
      {"smiles": "Nc1ccc([As](=O)(O)c2ccc([N+](=O)[O-])cc2)cc1", "inhibition": "inactive: 1.9%"},
      {"smiles": "C(Cc1nn[nH]n1)Cc1nn[nH]n1", "inhibition": "inactive: -1.71%"},
      {"smiles": "O=C(OC1CN2CCC1CC2)c1cccc(Cl)c1", "note": "(configuration not stated)", "inhibition": "inactive: -3.92%"},
      {"smiles": "O=[N+]([O-])c1ncn(CCn2cnc([N+](=O)[O-])n2)n1", "inhibition": "inactive: 0.37%"},
      {"smiles": "CC(=O)NC(SC(=S)N(C)C)C(Cl)(Cl)Cl", "note": "(configuration not stated)", "inhibition": "inactive: -2%"},
      {"smiles": "O=[N+]([O-])c1ccc(OP2(=O)COCCO2)cc1", "note": "(configuration not stated)", "inhibition": "inactive: -1.62%"},
      {"smiles": "O=[N+]([O-])c1ccc(O)c(/C=N/Nc2ccc([N+](=O)[O-])cc2[N+](=O)[O-])c1", "inhibition": "inactive: 8.6%"}
    ]}
  ]
}
